# T1: full length colicin E9 (E. coli, UniProt P09883 1-582)
# T1 construct: also called full length ColE9
# T1 sequence: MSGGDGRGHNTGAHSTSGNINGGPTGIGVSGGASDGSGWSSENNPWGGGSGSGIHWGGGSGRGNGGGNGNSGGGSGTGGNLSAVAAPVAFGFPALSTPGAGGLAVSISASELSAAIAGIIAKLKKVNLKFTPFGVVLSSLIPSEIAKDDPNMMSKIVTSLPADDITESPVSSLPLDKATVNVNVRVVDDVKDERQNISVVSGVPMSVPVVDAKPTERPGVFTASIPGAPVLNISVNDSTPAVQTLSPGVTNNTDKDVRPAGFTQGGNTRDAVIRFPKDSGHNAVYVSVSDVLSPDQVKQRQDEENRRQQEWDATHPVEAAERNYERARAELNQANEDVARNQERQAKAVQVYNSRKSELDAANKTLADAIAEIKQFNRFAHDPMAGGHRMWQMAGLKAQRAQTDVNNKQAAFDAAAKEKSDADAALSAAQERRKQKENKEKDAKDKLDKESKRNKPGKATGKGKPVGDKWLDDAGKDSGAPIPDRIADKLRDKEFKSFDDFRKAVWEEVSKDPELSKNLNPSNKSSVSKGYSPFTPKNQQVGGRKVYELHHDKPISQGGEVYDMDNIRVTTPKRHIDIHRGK
# B1: Im9 (S81C) derivatised with methyl-(PEG)12-maleimide (natural protein)
# chain: not shown
# notes: also called derivatised Im9 (S81C); source: derivatised with MM(PEG)12 and separated by size exclusion chromatography
# Biological target: T1, full length colicin E9
# Experiment: SEC
# Conditions: both partners purified
binder,measurement,value
B1,binding result,binds

# Source: publication PMC3576412, “A Force-Activated Trip Switch Triggers Rapid Dissociation of a Colicin from Its Immunity Protein” (PLoS Biology, 2013)
